Compound potency records, mixed from different reports. Data source: NIAID ChemDB in PubChem.

Common to all: whole-cell or culture tests; organism: Mycobacterium tuberculosis

MIC bound comes from a single tested concentration.

compound	cell line	read by	mutations	read-out	strain or isolate	dose	conditions	result
NC(=O)c1cnccn1	-	-	-	MIC	Isolate 97-578	-	-	900 µg/mL
NC(N)=N/N=C/c1ccc([N+](=O)[O-])o1	-	resazurin	-	inhibition	H37Rv	6.25 µg/mL	-	14%
CO[C@H]1/C=C/O[C@@]2(C)Oc3c(C)c(O)c4c(O)c(c(/C=N/N5CCN(C6CCCC6)CC5)c(O)c4c3C2=O)NC(=O)/C(C)=C\C=C\[C@H](C)[C@H](O)[C@@H](C)[C@@H](O)[C@@H](C)[C@H](O)[C@@H]1C	-	-	-	MIC	Erdman	-	-	0.06 µg/mL
O=C(N/N=C/c1cccs1)c1ccc(F)cc1	-	-	-	MIC	H37Rv	-	-	>6.25 µg/mL
O=[N+]([O-])c1ccc2c(c1)c(S(=O)(=O)O)cc1nonc12	-	resazurin	-	MIC bound	H37Rv	-	-	>6.25 µg/mL
O=c1oc2ccc(Br)cc2cc1-c1cs/c(=N\N=C\c2cc(Br)ccc2O)n1C1CCCCC1	-	-	-	EC50	H37Rv	-	-	>12.5 µg/mL
C[C@@H]1CN(c2c(F)c(N)c3c(=O)c(C(=O)O)cn(C4CC4)c3c2F)C[C@H](C)N1	-	-	-	MIC	CSU12	-	-	≤0.125 µg/mL
CCOc1cc(/C=N/N=c2\scc(-c3cc4ccccc4oc3=O)n2CC)ccc1O	-	-	-	inhibition	H37Rv	12.5 µg/mL	-	97%
COc1ccc(-c2cs/c(=N\NC(=O)COc3cnccn3)n2C(C)C)cc1	-	-	-	MIC	H37Rv	-	-	22 µg/mL
O=c1oc2ccccc2cc1-c1cs/c(=N\N=C\c2cc(Br)ccc2O)n1-c1ccccc1	-	-	-	EC50	H37Rv	-	-	>12.5 µg/mL
NNC(=O)c1ccncc1	-	resazurin / absorbance	isoniazid and streptomycin resistant	MIC	Clinical isolate 91	-	-	2 µg/mL
O=C(NNC(=O)c1ccncc1)Nc1cc(Cl)cc(Cl)c1	-	broth dilution	-	MIC100	My 331/88	-	14 d	32 µM
COc1ccc(C(=O)CN2CCN(c3cc4c(cc3F)c(=O)c(C(=O)O)cn4C3CC3)CC2)cc1	-	-	-	MIC	H37Rv	-	-	>6.25 µg/mL
O=[N+]([O-])c1cn2c(n1)OC[C@@H](OCc1ccc(OC(F)(F)F)cc1)C2	-	-	-	MIC	H37Rv-5A2 (PA-824-resistant)	-	-	>100 µM
O=C(CSc1nnc(-c2ccccn2)s1)N/N=c1/scc(-c2ccccc2)n1-c1ccccc1	-	-	-	MIC	H37Rv	-	-	>80 µg/mL
COc1ccc(NC(=O)NNC(=O)c2ccncc2)cc1	-	broth dilution	-	MIC100	My 331/88	-	21 d	62.5 µM
C=CCN1CCCC[C@H]1[C@@H](O)c1cc(C(F)(F)F)nc2c(C(F)(F)F)cccc12	-	-	-	MIC	-	-	-	25 µM
O=C(CSc1nnc(-c2ccccn2)s1)N/N=c1/scc(-c2ccccc2Cl)n1-c1ccccc1	-	-	-	MIC	H37Rv	-	-	>80 µg/mL
COc1cc(O)c2c(O)c3c(=O)cc(C)oc3cc2c1	-	-	-	MIC	CS-R	-	-	>12.5 µg/mL
CN[C@@H]1[C@H](O[C@H]2[C@H](O[C@H]3[C@H](O)[C@@H](O)[C@H](N=C(N)N)[C@@H](O)[C@@H]3N=C(N)N)O[C@@H](C)[C@]2(O)C=O)O[C@@H](CO)[C@H](O)[C@H]1O	-	resazurin	MDR	MIC	M8	-	-	>8 µg/mL
O=C(O)c1cn(C2CC2)c2cc(N3CCN(C/C(=N/O)c4ccccc4)CC3)c(F)cc2c1=O	VERO	-	-	MIC	H37Rv	-	-	1.56 µg/mL
CCCCN(C)CCNc1cc(C)nc(Nc2nc3ccc(Cl)cc3[nH]2)n1	-	resazurin	-	MIC	H37Rv	-	-	0.39 µg/mL
O=C(O)c1ccc(CN2CCCC[C@H]2[C@@H](O)c2cc(C(F)(F)F)nc3c(C(F)(F)F)cccc23)cc1	-	-	-	MIC	-	-	-	94 µM
O=[N+]([O-])Cc1cnc2nncn2n1	-	BACTEC	-	MIC bound	H37Rv	-	-	≤12.5 µg/mL
O=C(NNC(=O)c1ccncc1)Nc1c(Cl)cc(Cl)cc1Cl	-	broth dilution	-	MIC100	My 331/88	-	14 d	4 µM
C/C=C/c1ccc2oc(-c3ccc(OC)c(OC)c3)c(C)c2c1	-	resazurin / absorbance	-	MIC	Clinical isolate 4851	-	-	7.8 µg/mL
O=C(N/N=C/Cc1ccccc1)c1ccc(F)cc1	-	-	-	MIC	H37Rv	-	-	>6.25 µg/mL
O=C(COc1cnccn1)N/N=c1\scc(-c2ccc(O)cc2)n1-c1ccc(Cl)cc1	-	-	-	MIC	H37Rv	-	-	12.4 µg/mL
C=CCn1c(-c2cc3cc(Br)ccc3oc2=O)cs/c1=N\N=C\c1cc(Br)ccc1O	-	-	-	MIC	H37Rv	-	-	>12.5 µg/mL
COc1ccc(CCC2CCc3ccccc3N2C)cc1OC	-	-	-	MIC	MT4	-	-	>100 µg/mL
COc1ccccc1NC(=O)C(N=Nc1ccc(S(=O)(=O)Nc2onc(C)c2C)cc1)C(C)=O	-	BACTEC	-	inhibition	H37Rv	12.5 µg/mL	-	6%
NNC(=O)c1ccncc1	-	resazurin	MDR	MIC	M22	-	-	2 µg/mL
CC(=O)NNc1nc(C)cs1.Cl	-	BACTEC	-	MIC bound	H37Rv	-	-	>12.5 µg/mL
O=c1oc2ccccc2cc1-c1cs/c(=N\N=C\c2cc(Br)ccc2O)n1C1CCCCC1	-	-	-	inhibition	H37Rv	12.5 µg/mL	-	83%
COc1c(OCCCCBr)cc2oc3cc(O)c(CCC(C)C)c(O)c3c(=O)c2c1CCC(C)C	-	resazurin	-	MIC	H37Ra	-	-	12.5 µg/mL
O=C(CSc1nnc(-c2ccccn2)s1)N/N=c1/scc(-c2ccccc2)n1-c1ccc(Br)cc1	-	-	-	MIC	Clinical isolate 180	-	-	40 µg/mL
Cc1cc(-c2cc3c(cc2F)c(=O)c(C(=O)O)cn3C2CC2)cc(C)n1	-	-	-	MIC	3105-5	-	-	4 µg/mL
O=C(N=Nc1c(O)[nH]c2ccccc12)c1ccc(F)cc1	-	-	-	MIC	H37Rv	-	-	>6.25 µg/mL
CN1C(=O)/C(=C2\SC(=O)N(CN3CCOCC3)C2=O)c2cc(Br)ccc21	-	BACTEC	-	inhibition	H37Rv	12.5 µg/mL	-	0%
NNC(=O)c1ccncc1	-	-	-	MIC	CSU25	-	-	≤0.125 µg/mL
COC(=O)Nc1nc2ccc(C3c4c(n[nH]c4C)CC(C)(O)C3C(C)=O)cc2[nH]1	-	BACTEC	-	MIC bound	H37Rv	-	-	>12.5 µg/mL
Cc1cccc(-n2c(-c3ccccc3)cs/c2=N/NC(=O)CSc2nnc(-c3ccccn3)s2)c1	-	-	-	MIC	H37Rv	-	-	>80 µg/mL
NS(=O)(=O)c1ccc(CN2CCCC[C@H]2[C@@H](O)c2cc(C(F)(F)F)nc3c(C(F)(F)F)cccc23)cc1	-	-	-	MIC	-	-	-	22 µM
Fc1cc(Br)ccc1Nc1nnc(-c2ccncc2)o1	-	broth dilution	-	MIC100	My 331/88	-	21 d	>125 µM
O=C(CSc1nnc(-c2ccccn2)s1)N/N=c1/scc(-c2ccccc2)n1-c1ccccc1Cl	-	-	-	MIC	Clinical isolate 190	-	-	>80 µg/mL
CCC1Cn2cc([N+](=O)[O-])nc2O1	-	-	-	MIC	H37Rv-T2 (PA-824-resistant)	-	-	0.8 µM
CCn1cc(C(=O)O)c(=O)c2cc(F)c(N3CCN(CC(=O)c4ccccc4)CC3)nc21	-	-	-	EC50	H37Rv	-	-	<6.25 µg/mL
CN1CCN(CCOC(=O)N2c3ccccc3Sc3ccccc32)CC1	-	BACTEC	-	inhibition	H37Rv	12.5 µg/mL	-	18%
COc1cc2oc3cc(OC)c(CCC(C)C)c(O)c3c(=O)c2c(CCC(C)C)c1O	-	resazurin	-	MIC	H37Ra	-	-	>200 µg/mL
O=C(O)c1cn(C2CC2)c2cc(N3CCN(C/C(=N/O)c4ccc(Br)cc4)CC3)c(F)cc2c1=O	-	-	-	inhibition	H37Rv	6.25 µg/mL	-	87%
CC1CC/C(=N/O)CCCCC(=O)O1	-	BACTEC	-	inhibition	H37Rv	12.5 µg/mL	-	24%
O=C(O)c1cn(C2CC2)c2c(F)c(N3CCSCC3)c(F)cc2c1=O	-	-	-	MIC	CSU18	-	-	0.5 µg/mL
CCO/C=C1\N=C(C(O)(c2ccc(Cl)cc2)c2ccc(Cl)cc2)OC1=O	-	BACTEC	-	inhibition	H37Rv	12.5 µg/mL	-	-9%
COc1ccccc1-c1cc(C(F)(F)F)nc2c(C(F)(F)F)cccc12	-	-	-	MIC	-	-	-	>128 µM
O=[N+]([O-])[O][Ga]([O][N+](=O)[O-])[O][N+](=O)[O-]	-	-	-	EC50	H37Ra	-	-	<500 µM
O=C(CN1CCN(c2cc3c(cc2F)c(=O)c(C(=O)O)cn3C2CC2)CC1)c1ccc(F)cc1	VERO	-	-	inhibition	H37Rv	6.25 µg/mL	-	102%
O=C(N/N=C/c1ccc([N+](=O)[O-])o1)c1ccc(F)cc1	-	-	-	EC50	H37Rv	-	-	<6.25 µg/mL
C=CCCCCn1c2ccccc2c2c(C)c3c[n+](C)ccc3c(C)c21	-	resazurin	-	MIC	H37Rv	-	-	1.56 µg/mL
CC(C)Cn1c(-c2ccc(Br)cc2)cs/c1=N\NC(=O)COc1cnccn1	-	-	-	MIC	H37Rv	-	-	6.3 µg/mL
C/C=C/C/C=C/CCC(=O)[C@H]1O[C@H]1C(N)=O	-	-	-	MIC	90-0233 (isoniazid streptomycin-resistant)	-	-	2.5 µg/mL
O=C(N/N=C/c1ccc(Cl)cc1)c1ccc(F)cc1	-	-	-	MIC	H37Rv	-	-	>6.25 µg/mL
CCn1cc(C(=O)O)c(=O)c2cc(F)c(N3CCN(CC(=O)c4ccc(Br)cc4)CC3)cc21	VERO	-	-	EC50	H37Rv	-	-	<6.25 µg/mL
CN(C)c1ccc(/C=N/N=C/c2ccco2)c(Cl)c1	-	BACTEC	-	inhibition	H37Rv	12.5 µg/mL	-	3%
O=C(O)/C=C/c1ccccc1	-	-	-	MIC	90-0201 (DRUG-SUS)	-	-	100 µg/mL
CCn1cc(C(=O)O)c(=O)c2cc(F)c(N3CCN(C/C(=N/O)c4ccc(Br)cc4)CC3)cc21	-	-	-	inhibition	H37Rv	6.25 µg/mL	-	16%
CCC(=O)Oc1cc2oc3cc(OC(=O)CC)c(OC)c(CCC(C)C)c3c(=O)c2c(O)c1CCC(C)C	-	resazurin	-	MIC	H37Ra	-	-	1.56 µg/mL
FC(F)(F)c1ccc(NC(=S)SCc2ccc(Cl)cc2)cc1	-	BACTEC	-	MIC bound	H37Rv	-	-	≤128 µg/mL
NNC(=O)c1ccncc1	-	-	-	MIC	90-0201 (DRUG-SUS)	-	-	0.04 µg/mL
O=C(N/N=C/c1ccc([N+](=O)[O-])s1)c1ccc(F)cc1	-	-	-	MIC	H37Rv	-	-	<6.25 µg/mL
CC(C)=CCOc1c2ccoc2cc2oc(=O)ccc12	-	resazurin	Isoniazid-resistant	MIC100	H37Rv clinical isolate CRY2	-	-	100 µg/mL
Cc1cc2c(=O)cc(-c3ccncc3)oc2c(C(N)=O)c1C	-	resazurin	-	MIC bound	H37Rv	-	-	>6.25 µg/mL
CC1COc2c(N3CCN(C)CC3)c(F)cc3c(=O)c(C(=O)O)cn1c23	-	-	-	MIC	90-0145 (DRUG-SUS)	-	-	0.5 µg/mL
C=CCOc1cc2oc3cc(O)c(CCC(C)C)c(O)c3c(=O)c2c(CCC(C)C)c1OC	-	resazurin	MDR	MIC	M16	-	-	3.12 µg/mL
COc1cc2c(c3c1c(=S)c1ccccc1n3C)C=CC(C)(C)O2	-	BACTEC	-	MIC	H37Rv	-	-	≥12.5 µg/mL
CCCCn1c(-c2ccc(O)cc2)cs/c1=N\NC(=O)COc1cnccn1	-	-	-	MIC	H37Rv	-	-	7.9 µg/mL
O=c1n2ccccc2nc2nc3ccccc3n12	-	resazurin	-	MIC bound	H37Rv	-	-	>6.25 µg/mL
O=C(NNC(=O)c1ccncc1)Nc1ccc(Br)c(C(F)(F)F)c1	-	broth dilution	-	MIC100	My 331/88	-	14 d	8 µM
CO[C@H]1/C=C/O[C@@]2(C)Oc3c(C)c(O)c4c(O)c(c5c(c4c3C2=O)NC2(CCN(CC(C)C)CC2)N=5)=NC(=O)/C(C)=C\C=C\[C@H](C)[C@H](O)[C@@H](C)[C@@H](O)[C@@H](C)[C@H](OC(C)=O)[C@@H]1C	-	-	-	MIC	CSU18	-	-	≤0.125 µg/mL
CO[C@H]1/C=C/O[C@@]2(C)Oc3c(C)c(O)c4c(O)c(c(/C=N/N5CCN(C/C=C/c6ccccc6)CC5)c(O)c4c3C2=O)NC(=O)/C(C)=C\C=C\[C@H](C)[C@H](O)[C@@H](C)[C@@H](O)[C@@H](C)[C@H](OC(C)=O)[C@@H]1C	-	-	-	MIC	2219 (MDR)	-	-	>8 µg/mL
Cc1cc2c(cc1C)[n+]([O-])c(-c1nc3ccccc3s1)c(N)[n+]2[O-]	-	-	-	MIC	TAC-R	-	-	12.5 µg/mL
COc1ccc(CCc2cc(OC)c3ccccc3n2)cc1OC	-	-	-	MIC	MT2	-	-	77 µg/mL
COc1ccc(N=C2C(=Nc3ccc(OC)cc3)N(c3ccc(N(C)C)cc3)C(=S)N2c2ccc(OC)cc2)cc1	-	BACTEC	-	MIC bound	H37Rv	-	-	>12.5 µg/mL
C/C=C/c1ccc2oc(-c3ccc(O)c(OC)c3)c(C)c2c1	-	resazurin / absorbance	-	MIC	Clinical isolate 49	-	-	3.9 µg/mL

MIC50, MIC90 and the like: level of inhibition, or share of isolates inhibited. Percent inhibition refers to the dose given; in toxicity tests it is the harm to the cells. Conditions beyond the fields shown may differ between rows. Blank or dashed fields: not listed here. ECn: concentration that inhibits the pathogen or its effect by n%.